Pooled drug test results. Numbers come from NIAID ChemDB, via PubChem.

Common to all: target-level tests; species: HIV-1; protein: Reverse transcriptase; read-out: fold resistance

a–b is a range or a potency band. Neighbouring rows are from separate reports. Blank or dashed fields: not listed here. Fold resistance has wild type as its base.

| smiles | strain | changes | read by | value |
|---|---|---|---|---|
| Cc1ccc(-n2c(SCC(=O)Nc3ccc(S(=O)(=O)NCCN4CCOCC4)cc3Cl)nnc2C(F)F)c2c1CCCC2 | - | RT-Y181C | nucleotide incorporation / radiometric | >1 |
| Cc1cc(S(N)(=O)=O)ccc1NC(=O)COc1ccccc1C(=O)c1cc(Cl)cc(C#N)c1 | NNRTI-resistant | RT-Y181C | nucleotide incorporation / radiometric | 0.7 |
| CCOC(=O)C(C)NS(=O)(=O)c1ccc(NC(=O)CSc2nnc(C(F)F)n2-c2ccc(C)c3c2CCCC3)c(Cl)c1 | - | RT-Y188L | nucleotide incorporation / radiometric | >2 |
| CCc1ccc(-n2c(Br)nnc2SCC(=O)Nc2ccc(C(=O)N[C@H](C(=O)OC)C(C)C)cc2Cl)c2ccccc12 | - | RT-Y188L | nucleotide incorporation / radiometric | <1 |
| C=C1c2cc(CCOc3ccc(NS(C)(=O)=O)c4ccccc34)cnc2N(CC)c2ncccc2N1C | - | RT-K103N Y181C | nucleotide incorporation / radiometric | 1–10 |
| COC(=O)[C@H](CC(C)C)NC(=O)c1ccc(NC(=O)CSc2nnc(Br)n2-c2ccc(C3CC3)c3ccccc23)c(Cl)c1 | - | RT-Y188L | nucleotide incorporation / radiometric | >1 |
| Cc1cc(C)cc(S(=O)(=O)c2c(C(N)=O)[nH]c3ccc(Cl)cc23)c1 | - | RT-Y188L | nucleotide incorporation / radiometric | 66.6 |
| CCOC(=O)N1CCC(NC(=O)c2ccc(NC(=O)CSc3nnc(Br)n3-c3ccc(CC)c4ccccc34)c(Cl)c2)CC1 | - | RT-Y188L | nucleotide incorporation / radiometric | >2 |
| CCc1cc(NCc2nc3c(C)ccc(C)c3o2)c(=O)[nH]c1C | - | RT-K103N | nucleotide incorporation | 17.7 |
| O=C(CSc1nnc(Br)n1-c1ccc(C2CC2)cc1Cl)Nc1ccc(S(=O)(=O)O)cc1Cl | - | RT-Y188L | nucleotide incorporation / radiometric | >2 |
| CC(C)=CCOc1cc(NC(=S)c2ccsc2C)ccc1Cl | - | RT-L100I | - | 5.5 |
| CCNC(=O)N1CCc2c(OCCc3cnc4c(c3)C(=O)N(C)c3cccnc3N4CC)ccc(C(=O)O)c2C1 | - | RT-K103N Y181C | nucleotide incorporation / radiometric | 1–10 |
| CCOC(=O)CN(C)C(=O)c1ccc(NC(=O)CSc2nnc(Br)n2-c2ccc(C3CC3)c3ccccc23)c(Cl)c1 | - | RT-Y188L | nucleotide incorporation / radiometric | >1 |
| CCN1c2ncc(CCOc3ccc(-c4ccc(CC(=O)O)cc4O)cc3C)cc2C(=O)N(C)c2cccnc21 | IIIB | RT-K103N Y181C | nucleotide incorporation / radiometric | >1 |
| CCN1c2ncc(CCOc3ccc(CC(=O)NN)c4ccccc34)cc2C(=O)N(C)c2cccnc21 | - | RT-V106A | nucleotide incorporation / radiometric | 1–10 |
| Cc1ccc(-n2c(SCC(=O)Nc3ccc(S(=O)(=O)NC(C(=O)O)C(C)C)cc3Cl)nnc2C(F)F)c2c1CCCC2 | - | RT-Y181C | nucleotide incorporation / radiometric | >2 |
| CCN1c2ncc(CCOc3ccc(NC(=O)NCC(=O)O)cc3C)cc2C(=O)N(C)c2cccnc21 | IIIB | RT-K103N Y181C | nucleotide incorporation / radiometric | >2 |
| CC(C)=CCOc1cc(NC(=S)c2ccoc2C)ccc1Cl | - | RT-L74V | - | 0.63 |
| NCCCCNc1nc(Cc2ccccc2)cc(=O)[nH]1 | - | RT-K103N | - | >14.3 |
| CNS(=O)(=O)c1ccc(NC(=O)CSc2nnc(C(F)F)n2-c2ccc(C)c3c2CCCC3)c(Cl)c1 | - | RT-Y188L | nucleotide incorporation / radiometric | >2 |
| CCN1c2ncc(CCOc3ccc(C(C)CC(=O)O)c4ccccc34)cc2C(=O)N(C)c2cccnc21 | - | RT-K103N Y181C | nucleotide incorporation / radiometric | 1–10 |
| CCc1ccc(-n2c(Br)nnc2SCC(=O)Nc2ccc(S(N)(=O)=O)cc2Br)c2ccccc12 | - | RT-Y188L | nucleotide incorporation / radiometric | >1 |
| CCN1c2ncc(CCOc3ccc(NC(=O)CC4(C(=O)O)CCCC4)cc3C)cc2C(=O)N(C)c2cccnc21 | IIIB | RT-K103N Y181C | nucleotide incorporation / radiometric | >2 |
| CCc1ccc(-n2c(C)nnc2SCC(=O)Nc2ccc(S(N)(=O)=O)cc2C)c2ccccc12 | - | RT-Y188L | nucleotide incorporation / radiometric | >2 |
| NC(=O)c1[nH]c2ccc(Cl)cc2c1S(=O)(=O)c1ccccc1 | - | RT-L100I | nucleotide incorporation / radiometric | 100 |
| CCOCn1c(Sc2ccccc2)c(CC)c(=O)[nH]c1=O | - | RT-Y181I | nucleotide incorporation | 22 |
| CC[C@H](C)[C@H](NC(=O)c1ccc(NC(=O)CSc2nnc(Br)n2-c2ccc(C3CC3)c3ccccc23)c(Cl)c1)C(=O)O | - | RT-Y181C | nucleotide incorporation / radiometric | >1 |
| O=c1cc(Cc2ccccc2)nc(NCCCCO)[nH]1 | - | RT-K103N | - | 2.05 |
| O=C(CSc1nnc(Br)n1-c1c(Cl)cc(C2CCC2)c2ccccc12)Nc1ccc(C(=O)O)cc1Cl | - | RT-Y188L | nucleotide incorporation / radiometric | >1 |
| COC(=O)NCCCCNc1nc(Cc2ccccc2)c(C)c(=O)[nH]1 | - | RT-K103N | - | >43.5 |
| O=C(O)CNC(=O)c1ccc(NC(=O)CSc2nnc(Br)n2-c2ccc(C3CC3)c3ccccc23)c(Cl)c1 | - | RT-Y188L | nucleotide incorporation / radiometric | >1 |
| O=C(CSc1nnc(Br)n1-c1ccc(C2CC2)cc1Cl)Nc1ccc(C(=O)O)cc1Cl | - | RT-Y188L | nucleotide incorporation / radiometric | >2 |
| CCN1c2ncc(CCOc3ccc(-c4cccc(C(C)C(=O)O)c4)cc3C)cc2C(=O)N(C)c2cccnc21 | IIIB | RT-K103N Y181C | nucleotide incorporation / radiometric | >1 |
| CCc1ccc(-n2c(I)nnc2SCC(=O)Nc2ccc(S(N)(=O)=O)cc2Cl)c2ccccc12 | - | RT-Y181C | nucleotide incorporation / radiometric | >1 |
| CCN1c2ncc(CCOc3ccc(-c4ccc(C(=O)O)cc4)cc3)cc2C(=O)N(C)c2cccnc21 | IIIB | RT-K103N Y181C | nucleotide incorporation / radiometric | >1 |
| NS(=O)(=O)c1ccc(NC(=O)CSc2nncn2-c2ccc(C3CC3)c3ccccc23)c(Cl)c1 | - | RT-Y181C | nucleotide incorporation / radiometric | >1 |
| CCN1c2ncc(CCOc3cccc4c3ccc[n+]4[O-])cc2C(=O)N(C)c2ccc(Cl)nc21 | - | RT-V106A | nucleotide incorporation / radiometric | 94.4 |